Counter-ions that a name gives are not always drawn. Like-named read-outs stand apart in the source and are kept apart here.
How the values were obtained:
S405T mutant BVDV = assay type: cell-based, bovine viral diarrhea virus; details: de novo-infected MDBK
[1] = test system: genotype 1 HCV (serum HCV RNA)

Compound	sensitivity of S405T mutant relative to wild-type (S405T mutant BVDV) [fold]	viral load drop in response to therapy ([1]; animal 497, site 2 (largest drop)) [log10]	viral load drop in response to therapy ([1]; animal 501, site 1 (smallest drop)) [log10]
interferon alpha 2b	~40		
CC(C)C(N)C(=O)OC1[C@@H](CO)O[C@@H](n2ccc(N)nc2=O)C1(C)O (stereo in doubt) [val-mCyd, 2-Amino-3-methyl-butyric acid 5-(4-amino-2-oxo-2H-pyrimidine-1-yl)-4-hydroxy-2 hydroxy-methyl-4-methyl-tetrahydro-furan-3-yl ester (dihydrochloride salt)]		1.514	0.436
